Results of unrelated studies side by side (data: NIAID ChemDB).

All rows: host cell toxicity; cells: MT-4; endpoint: CC50

Blank or dashed fields: not listed here.

CCOC(=O)c1[nH]c2ccc(Cl)cc2c1SC1CCCCC1 ; method: microscopy ; result: >10 µM
[N-]=[N+]=Nc1c(-c2ccccc2)c(-c2ccccc2)n(COCCO)c1-c1ccccc1 ; method: MTT ; result: 65 µM
NC(=O)c1[nH]c2ccc(Cl)cc2c1S(=O)(=O)CC(F)(F)C(F)F ; method: microscopy ; result: >10 µM
Clc1cccc(Nn2cnc3c2CCCC3)c1 ; result: 67.29 µM
Cc1ccc(-c2cc(-c3ccc(Cl)cc3)nc(/N=C3\C(=O)Nc4ccccc43)n2)cc1 ; method: MTT ; result: 9.4 µM
CCOC(=O)c1c([N+](=O)[O-])c(-c2ccccc2)n(COCCO)c1-c1ccccc1 ; method: MTT ; result: 163 µM
Nc1ccn(C2C[C@](N)(CO)CO2)c(=O)n1 ; result: >100 µg/mL
CCCCc1csc(NC(=S)NCCc2ccccc2)n1 ; result: 313 µM
CCOC(=O)c1c(Br)c(-c2ccccc2)n(COCCO)c1-c1ccccc1 ; method: MTT ; result: 64 µM
Cc1ccc(-c2cc(-c3ccc(Cl)cc3)nc(/N=C3\C(=O)N(CN4CCCCC4)c4ccc(Cl)cc43)n2)cc1 ; method: MTT ; result: 2.6 µM
Nc1ncnc2c1ncn2[C@H]1C[C@](N)(CO)CO1 ; result: >100 µg/mL
CC(=O)c1ccc(N2CCN(c3cc4c(cc3N)c(=O)c(C(=O)O)cn4C)CC2)cc1 ; method: MTT ; result: 0.157 µg/mL
N#Cc1c([N+](=O)[O-])c(-c2ccccc2)n(COCCO)c1-c1ccccc1 ; method: MTT ; result: >300 µM
O=c1ccn([C@H]2C=C[C@@H](CO)O2)c(=O)n1CCOCCN1CCN(CCNC(=S)Nc2ccc(Br)cn2)CC1 ; method: MTT ; result: >100 µM
CCc1c(C(=O)c2cc(C)cc(C)c2)n(CC2CO2)c(=O)[nH]c1=O ; method: MTT ; result: >100 µg/mL
CC1=C(C(=O)Nc2cc(C)ccc2C)C2=NN=C(N)C2C(=O)N1 ; method: MTT ; result: 45.6 µg/mL
Cc1cc(C)cc(Oc2c(C(C)C)c(=O)[nH]c(=O)n2Cc2cc(Br)cc(Br)c2)c1 ; method: MTT ; result: >100 µg/mL
COc1ccccc1NC(=O)C1=C(C)NC(=O)C2C(N)=NN=C12 ; method: MTT ; result: >100 µg/mL
Cc1cn([C@H]2C=C[C@@H](CO)O2)c(=O)[nH]c1=O ; method: MTT ; result: >100 µM
CCN(CC)CCN1C(=O)C2C3C=CC(C3=C(c3ccccc3)c3ccccc3)C2C1=O ; method: MTT ; result: 27 µM
CC1=C(C(=O)Nc2cccc(Cl)c2Cl)C2=NN=C(N)C2C(=O)N1 ; method: MTT ; result: 19 µg/mL
CCc1c(Oc2cc(C)cc(C)c2)n(Cc2ccccn2)c(=O)[nH]c1=O ; method: MTT ; result: >100 µg/mL
NC(=O)c1[nH]c2ccc(Cl)cc2c1S(=O)(=O)C1CCCC1 ; method: microscopy ; result: >10 µM
CCc1c(Oc2cc(C)cc(C)c2)n(Cc2cc(Br)cc(Br)c2)c(=O)[nH]c1=O ; method: MTT ; result: >100 µg/mL
CC(=O)c1ccc(C)cc1NC(C(N)=O)c1c(Cl)cccc1Cl ; result: >10 µM
COc1ccc(Cl)cc1NC(=O)C1=C(C)NC(=O)C2C(N)=NN=C12 ; method: MTT ; result: 54.8 µg/mL
Cc1ccc(-c2cc(-c3ccc(Cl)cc3)nc(/N=C3\C(=O)N(CN4CCCCC4)c4ccccc43)n2)cc1 ; method: MTT ; result: 1.1 µM
CCc1[nH]c(=S)n(Nc2cccc(C)c2)c1-c1ccccc1 ; result: 53.55 µM
CC(=O)Nc1cc(S(=O)(=O)O)cc2cc(S(=O)(=O)O)cc(O)c12 ; result: >500 µM
O=[N+]([O-])c1cc(-c2ccccc2)n(COCCO)c1-c1ccccc1 ; method: MTT ; result: 46 µM
Cc1cc(C)cc(Oc2c(C(C)C)c(=O)[nH]c(=O)n2Cc2cccc(Cl)n2)c1 ; method: MTT ; result: >100 µg/mL
O=C(CCCCCCCCCCC(=O)Nc1cc(S(=O)(=O)O)cc2cc(S(=O)(=O)O)cc(O)c12)Nc1cc(S(=O)(=O)O)cc2cc(S(=O)(=O)O)cc(O)c12 ; result: 465 µM
Cc1cccc(Nn2c(C)c(C)[nH]c2=S)c1 ; result: 360 µM
NC(=O)c1[nH]c2ccc(Cl)cc2c1S(=O)(=O)C1CC1 ; method: microscopy ; result: >10 µM
O=c1ccn([C@H]2C=C[C@@H](CO)O2)c(=O)n1CCCCCCN1CCN(CCNC(=S)Nc2ccc(Br)cn2)CC1 ; method: MTT ; result: >100 µM
CC1=C(C(=O)Nc2ccc(Cl)c(Cl)c2)C2=NN=C(N)C2C(=O)N1 ; method: MTT ; result: 71.08 µg/mL
S=C(NCCc1ccccn1)Nc1nccs1 ; result: 76 µM
CC(=O)OCCOCn1c(-c2ccccc2)c(Br)c(Br)c1-c1ccccc1 ; method: MTT ; result: 23 µM
[N-]=[N+]=N[C@@]1(CO)CO[C@H](n2cnc3c(N)ncnc32)C1 ; result: >100 µg/mL
CC(=O)OCCOCn1c(-c2ccccc2)c(-c2ccccc2)c([N+](=O)[O-])c1-c1ccccc1 ; method: MTT ; result: >300 µM
Nc1cc2c(=O)c(C(=O)O)cn(C3CC3)c2cc1N1CCN(c2nc3ccccc3s2)CC1 ; method: MTT ; result: 0.076 µg/mL
CCOc1cc(/C=C2\SC(=O)N(CC(=O)c3ccccc3)C2=O)c(Br)cc1OCc1ccc(C(=O)O)cc1 ; result: 76.82 µg/mL
CCc1csc(NC(=S)NCCc2ccccc2)n1 ; result: >340 µM
Cc1[nH]c(=S)n(Nc2ccccc2)c1-c1ccccc1 ; result: 191 µM
COc1cccc(CCNC(=S)Nc2nccs2)c1 ; result: 143 µM
Cc1ncn(Nc2cccc(Cl)c2)c1-c1ccccc1 ; result: 17.48 µM
O=S(=O)(O)OCC1OC2OC3C(COS(=O)(=O)O)OC(OC4C(COS(=O)(=O)O)OC(OC5C(COS(=O)(=O)O)OC(OC6C(COS(=O)(=O)O)OC(OC7C(COS(=O)(=O)O)OC(OC8C(COS(=O)(=O)O)OC(OC9C(COS(=O)(=O)O)OC(OC1C(OS(=O)(=O)O)C2OS(=O)(=O)O)C(OS(=O)(=O)O)C9OS(=O)(=O)O)C(OS(=O)(=O)O)C8OS(=O)(=O)O)C(OS(=O)(=O)O)C7OS(=O)(=O)O)C(OS(=O)(=O)O)C6OS(=O)(=O)O)C(OS(=O)(=O)O)C5OS(=O)(=O)O)C(OS(=O)(=O)O)C4OS(=O)(=O)O)C(OS(=O)(=O)O)C3OS(=O)(=O)O ; result: >2500 µg/mL
Cc1cn([C@H]2C=C[C@@H](CO)O2)c(=O)n(CCCCCCN2CCN(CCNC(=S)Nc3ccc(Br)cn3)CC2)c1=O ; method: MTT ; result: >100 µM
OCCOCn1c(-c2ccccc2)c(Br)c(-c2ccccc2)c1-c1ccccc1 ; method: MTT ; result: 15 µM
CCc1ncn(Nc2cccc(C)c2)c1-c1ccccc1 ; result: 27.87 µM
CCc1c(Oc2cc(C)cc(C)c2)n(CC2CCC2)c(=O)[nH]c1=O ; method: MTT ; result: >100 µg/mL
Cc1ccc(-c2cc(-c3ccc(Cl)cc3)nc(/N=C3\C(=O)N(CN(C)C)c4ccc(Br)cc43)n2)cc1 ; method: MTT ; result: 12.9 µM
CC(=O)Nc1cc(S(=O)(=O)O)c2cccc(S(=O)(=O)O)c2c1 ; result: 414 µM
O=C1C2C3C=CC(C3=C(c3ccccc3)c3ccccc3)C2C(=O)N1CCN1CCCCC1 ; method: MTT ; result: 38 µM
CCc1ccc(NC(=O)C2=C(C)NC(=O)C3C(N)=NN=C23)cc1 ; method: MTT ; result: >98 µg/mL

Repeating the final 6 entries:

compound,method,result
CCc1ncn(Nc2cccc(C)c2)c1-c1ccccc1,-,27.87 µM
CCc1c(Oc2cc(C)cc(C)c2)n(CC2CCC2)c(=O)[nH]c1=O,MTT,>100 µg/mL
Cc1ccc(-c2cc(-c3ccc(Cl)cc3)nc(/N=C3\C(=O)N(CN(C)C)c4ccc(Br)cc43)n2)cc1,MTT,12.9 µM
CC(=O)Nc1cc(S(=O)(=O)O)c2cccc(S(=O)(=O)O)c2c1,-,414 µM
O=C1C2C3C=CC(C3=C(c3ccccc3)c3ccccc3)C2C(=O)N1CCN1CCCCC1,MTT,38 µM
CCc1ccc(NC(=O)C2=C(C)NC(=O)C3C(N)=NN=C23)cc1,MTT,>98 µg/mL

CCn: concentration that lowers growth or viability of the cells by n%. Rows are shuffled and stem from different studies.